# Measurements: article PMC8430508 (International Journal of Molecular Sciences, 2021)
# T1: cytosolic domain of human TOM70 (111-608) with E477A (human, UniProt O94826 111-608, E477A)
# T1 sequence: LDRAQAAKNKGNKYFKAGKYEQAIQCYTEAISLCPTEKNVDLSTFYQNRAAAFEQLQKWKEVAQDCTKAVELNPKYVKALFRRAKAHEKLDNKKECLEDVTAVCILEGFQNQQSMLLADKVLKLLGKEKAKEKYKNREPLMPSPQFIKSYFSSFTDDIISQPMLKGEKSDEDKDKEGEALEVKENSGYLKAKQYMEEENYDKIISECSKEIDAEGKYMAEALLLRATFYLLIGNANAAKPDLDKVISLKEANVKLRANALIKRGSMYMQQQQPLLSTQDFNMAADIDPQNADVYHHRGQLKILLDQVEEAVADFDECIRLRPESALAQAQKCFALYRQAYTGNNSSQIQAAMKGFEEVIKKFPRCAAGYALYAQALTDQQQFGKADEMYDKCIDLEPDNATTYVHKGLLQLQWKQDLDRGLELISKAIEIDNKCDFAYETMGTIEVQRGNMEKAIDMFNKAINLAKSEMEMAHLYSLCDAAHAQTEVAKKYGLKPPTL
# Target: T1, cytosolic domain of human TOM70 …
# Assay: […]; 7% ([…]; 40 min, 30 °C; […], pH 7.2; […]
# Conditions: one partner purified
binder,measurement,value
"SARS-CoV-2 Orf9b wild type, radiolabeled, synthesized in reticulocyte lysate (natural protein, [35S]-methionine label) not shown",percent reduction of binding against TOM70WT,73%
